What is called Ki is the dissociation constant of the complex between target and ligand, obtained from inhibition or displacement.

The test addresses recombinant HIV-1 protease (Human immunodeficiency virus type 1 group M subtype B, UniProt P04585). Description: Enzymatic fluorometric (FRET) assay for determining the inhibition constant (Ki) against HIV protease. It counts as biochemical. As to conditions: pH 4.7, 31° C. From the text: An Enzymatic assay for determining the inhibition constant (Ki) of synthetic compounds targeting the HIV protease may be carried out as follows: This is a fluorometric assay based on the cleavage by protease of a substrate carrying a donor group (EDANS) and an acceptor group (DABCYL) on each side of the cleavage site, interacting together through fluorescence resonance energy transfer (FRET). Cleavage of the substrate by protease stops energy exchange between the two groups, resulting in a time-dependent increase in fluorescence intensity that is linearly related to the extent of substrate hydrolysis.
The enzymatic assay is done at 31° C. in white 96-well fluorescence microplates, in a total volume of 200 μL per well. The apparatus used for analysis is a FL600 fluorescence microplate reader (Biotek Instruments). […] Excitation of the fluorophore is done at 340 nm and emission at 485 nm is recorded continuously during the reaction, allowing determination of the enzyme's initial velocity (v0). At the end of the 4 min incubation, the potential inhibitor at a defined concentration in a volume of 4 μL is added to the reaction, and fluorescence readings are taken for another 4 min, allowing determination of enzyme velocity (vi) in the presence of the inhibitory compound. […]

Some results are limits rather than exact numbers.

Consider `Cc1ccc(S(=O)(=O)N(CC(C)C)[C@@H](CCCCNC(=O)O[C@H]2CC[C@@]3(C)C(=CC[C@H]4[C@@H]5CC[C@H]([C@H](C)CCCC(C)C)[C@@]5(C)CC[C@@H]43)C2)C(=O)O)cc1`, for which the Ki was greater than 1250 nM.

The values are drawn from patent US6455587B1 (priority 2000, dated 2002).
